Data on two sequences can be found in paper doi:10.1101/2024.11.11.622897.

The exact form of at least one protein or probe is not confirmed. The comparison behind a weaker result is the experiment's own reference, which may not be listed here. At least one verdict was read from the data and is not stated in words by the source. For part of these data: Protein sequences can lack the tags named with them.

Data set [1] relates to DdaA homolog Hi (Haemophilus influenzae 65290_NP_Hi3). Description: EMSA. Particulars: protein in 150 mM NaCl, 20 mM Tris-HCl pH 7.5. On the technique in general: In EMSA bound probe runs differently from free probe, usually more slowly.
Data set [2] has as its target T1, DdaA (A. baumannii), AbDdaA (Acinetobacter baumannii ATCC 17978) (UniProt V5VBS3).
T1 sequence (looked up, limits assumed): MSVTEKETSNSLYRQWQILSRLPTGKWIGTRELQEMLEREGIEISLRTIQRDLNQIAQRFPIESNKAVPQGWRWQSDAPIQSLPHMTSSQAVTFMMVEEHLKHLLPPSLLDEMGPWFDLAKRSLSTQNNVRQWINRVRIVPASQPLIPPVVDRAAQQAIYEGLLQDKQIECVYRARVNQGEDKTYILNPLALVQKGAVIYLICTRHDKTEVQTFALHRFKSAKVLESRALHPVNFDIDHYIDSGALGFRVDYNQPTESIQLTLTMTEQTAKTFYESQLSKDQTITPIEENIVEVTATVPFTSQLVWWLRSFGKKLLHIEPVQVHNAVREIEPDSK
Kind of data set: EMSA. Particulars: weakened or lost; protein in 150 mM NaCl, 20 mM Tris-HCl pH 7.5.

As to “TTTCCGGTCTGGGCGACACAATATGACGTGTAATTTTAACC (double strand) [recA promoter motif WT (AR-DDRM)]”, the binding result in data set [1] is “binds”.

As to “TTTCCGGTCTGGGCGAGACAATATGACGTGTAATTTTAACC (double strand) [recA promoter M3]”, the binding result in data set [1] (weakened or lost) and in data set [2] was “binds more weakly” in each case.
